Anti-infective test results gathered from many reports (values: NIAID ChemDB through PubChem).

All rows: tests in culture; agent: Candida albicans

Neighbouring rows are from separate reports.

smiles,read by,measure,strain,value
Clc1ccc(CO/N=C2/c3ccccc3OCC2n2cncn2)c(Cl)c1,,MIC,ATCC 10231,16 µg/mL
COc1cc(O)c2c(c1)C(=O)c1c(cc3c(c1O)-c1c(cc(C)c(C(=O)NC(CO)C(=O)O)c1O)[C@H](OC1OC(C)C(O)C(OC4OCC(O)C(O)C4O)C1O)C3O)C2=O,,MIC,ATCC 90028,6.25 µg/mL
C/C(=N\NC(=O)CSc1n[nH]c(C)n1)c1ccccc1O,,MIC,ATCC 90028,800 µg/mL
OC(Cn1cncn1)(Cn1cncn1)c1ccc(F)cc1F,agar diffusion,MIC80,,>1.63 µg/mL
Clc1ccc(CO/N=C2/c3ccccc3OCC2n2cncn2)cc1,,MIC,ATCC 10231,16 µg/mL
CCN1CC(C)(C)OC(=O)C1CC(=O)NCc1cccc(C)c1,broth dilution,MIC,SC5314,12.5 µg/mL
COc1ccc(C(=O)O/N=C(\CCn2ccnc2)c2ccccc2)cc1,agar diffusion,MIC80,,0.0112 µg/mL
O/N=C(\c1ccc(Cl)cc1)c1oc2ccccc2c1Cn1ccnc1,,MIC,NRRL Y-27077,25 µg/mL
CCCCCCCCCCCCC/C=C\C1=N[C@H]1C(=O)OC,,MIC,96-489,4 µg/mL
Cc1c(/C(=N\O)c2ccccc2)oc2ccccc12,,MIC,Clinical isolate,25 µg/mL
Oc1ccc(C(=S)N2CCN=C2c2ccccc2)c(O)c1,,MIC,10 isolates,100 µg/mL
COc1ccc2c(C)c(C(=O)c3ccccc3)oc2c1,,MIC,Clinical isolate,25 µg/mL
O/N=C(/CCn1ccnc1)c1ccccc1,agar diffusion,MIC80,,0.5807 µg/mL
Cc1ccc(CC(Cc2ccc(-c3ccccc3)cc2)n2ccnc2)cc1,,MIC,,19 µM
CCO/N=C(\c1ccc(OC)cc1)c1cc2ccccc2o1,,MIC,,4 µg/mL
CCCCCCCCOc1ccc(N2CCN(c3ccc(C(=O)N[C@H]4CCCNC(=O)C5C[C@H](N)CN5C(=O)C(C(C)O)NC(=O)C(Cc5ccc(C)cc5)NC(=O)C5CCCN5C(=O)C(C(C)O)NC4=O)cc3)CC2)cc1,,MIC,ATCC 10231,3.12 µg/mL
Fc1ccc(CC(Cc2ccc(-c3ccccc3)cc2)n2ccnc2)cc1,,MFC,,19 µM
Fc1cccc(CO/N=C2/c3ccccc3OCC2n2cncn2)c1,,MIC,ATCC 10231,32 µg/mL
CCc1nc(SCC(=O)N/N=C(\C)c2ccc(O)cc2)n[nH]1,,MIC,ATCC 90028,400 µg/mL
COc1ccc(/C(=N\OCc2ccc(Cl)cc2)c2cc3ccccc3o2)cc1,,MIC,,16 µg/mL
C[C@@H](N1CCN(c2ccc(-n3cnnn3)cc2)C1=O)[C@](O)(C[n+]1cn(OC(=O)C(C)(C)C)cn1)c1ccc(F)cc1F,,MIC,TA,0.5 µg/mL
C/C(=N\NC(=O)CSc1ncn[nH]1)c1ccccc1[N+](=O)[O-],,MIC,ATCC 90028,400 µg/mL
NC(N)=NCCC[C@H](N)C(=O)N[C@H]1[C@@H](O)[C@H](n2cnc3c(N)ncnc32)O[C@@H]1C(=O)O,,MIC,FP633,12.5 µg/mL
CC(=O)NCCOC(=O)On1cn[n+](C[C@](O)(c2ccc(F)cc2F)[C@@H](C)N2CCN(c3ccc(-n4cnnn4)cc3)C2=O)c1,,MIC,TA,0.06 µg/mL
Nc1ncnc2c1ncn2[C@@H]1O[C@H](C(=O)O)[C@@H](NC(=O)[C@H](N)CSCC2CC2)[C@H]1O,,MIC,FP633,3.1 µg/mL
CCN1CC(C)(C)OC(=O)C1CC(=O)Nc1cccnc1,broth dilution,MIC,SC5314,>50 µg/mL
CCCCCOc1ccc(-c2ccc(-c3ccc(C(=O)N[C@H]4CCCNC(=O)[C@H]5CCN5C(=O)C(C(C)O)NC(=O)C(CCc5ccc(O)cc5)NC(=O)C5C[C@@H](O)CN5C(=O)C(C(C)O)NC4=O)cc3)cc2)cc1,,MIC,ATCC 10231,>100 µg/mL
COc1ccc(/C(=N\O)c2cc3ccccc3o2)cc1,,MIC,,2 µg/mL
Cc1ccccc1CC(Cc1ccc(-c2ccccc2)cc1)n1ccnc1,,MFC,,>100 µM
CC(=O)On1cn[n+](C[C@](O)(c2ccc(F)cc2F)[C@@H](C)N2CCN(c3ccc(-n4cnnn4)cc3)C2=O)c1,,MIC,TA,0.06 µg/mL
O=C(c1ccccc1)c1oc2ccccc2c1Cn1ccnc1,,MIC,Clinical isolate,25 µg/mL
Cc1ccc(-c2c3c(N)c4c(nc3nc3c2c(C)nn3-c2ccccc2)CCCCC4)cc1,broth dilution / absorbance,MIC50,CCC 127,31.2 µg/mL
COC(=O)[C@@H]1N=C1/C=C\CCCCCCCCCCCCC(C)(C)C,,MIC,ATCC 14503,>64 µg/mL
Cc1ccc(/C(CCn2ccnc2)=N\O)cc1,agar diffusion,MIC80,,0.5456 µg/mL
C[C@H]1[C@H](O)[C@@H](C)/C=C/C=C/C=C/C=C/C=C/C=C/C=C/[C@H](O[C@@H]2O[C@H](C)[C@@H](O)[C@H](N)[C@@H]2O)C[C@@H]2O[C@](O)(C[C@@H](O)C[C@@H](O)CC[C@H](O)[C@@H](O)C[C@@H](O)CC(=O)O[C@H]1C)C[C@H](O)[C@H]2C(=O)O,broth dilution,MIC,SC5314,1.6 µg/mL
Cc1ccc(/C(=N\OCc2ccc(Cl)cc2)c2cc3ccccc3o2)cc1,,MIC,,16 µg/mL
CCCCCCCCCCCCOc1ccc(N2CCN(c3ccc(C(=O)N[C@H]4CCCNC(=O)C5C[C@H](N)CN5C(=O)C(C(C)O)NC(=O)C(CCc5ccc(O)cc5)NC(=O)C5C[C@@H](O)CN5C(=O)C(C(C)O)NC4=O)cc3)CC2)cc1,,MIC,ATCC 62376,0.78 µg/mL
Clc1ccc(CO/N=C2\c3ccccc3OCC2n2cncn2)cc1,,MFC,ATCC 10231,>64 µg/mL
COc1ccccc1CC(Cc1ccc(-c2ccccc2)cc1)n1ccnc1,,MFC,,19 µM
CCN1CC(C)(C)OC(=O)C1CC(=O)Nc1ccccn1,broth dilution,MIC,SC5314,>50 µg/mL
CCc1nc(SCC(=O)N/N=C(\C)c2ccc(Cl)cc2)n[nH]1,,MIC,ATCC 90028,100 µg/mL
CCN(CC)C(=O)CC1C(=O)OC(C)(C)CN1CC,broth dilution,MIC,SC5314,>50 µg/mL
CC(C)OC(=O)On1cn[n+](C[C@](O)(c2ccc(F)cc2F)[C@@H](C)N2CCN(c3ccc(-n4cnnn4)cc3)C2=O)c1,,MIC,TA,0.25 µg/mL
O=C(O/N=C(\c1ccccc1)c1cc2ccccc2o1)c1ccccc1,,MIC,,4 µg/mL
C/C(=N\NC(=O)CSc1ncn[nH]1)c1ccc([N+](=O)[O-])cc1,,MIC,ATCC 90028,400 µg/mL
O/N=C(\c1ccc(Cl)cc1)c1cc2ccccc2o1,,MIC,,4 µg/mL
CCCCCCCCCC/C=C\C1=N[C@H]1C(=O)OC,,MIC,96-489,2–3 µg/mL
O=C(O/N=C(\CCn1ccnc1)c1ccccc1)c1cccc(Cl)c1,agar diffusion,MIC80,,0.0221 µg/mL
Nc1ncnc2c1ncn2[C@@H]1O[C@H](C(=O)O)[C@@H](NC(=O)[C@@H](N)Cc2ccccc2)[C@H]1O,,MIC,FP633,3.1 µg/mL
CC(=O)N1CC(C)(C)OC(=O)C1CC(=O)Nc1ccc(C(C)C)cc1,broth dilution,MIC,SC5314,>25 µg/mL
CC(=O)NCSC[C@@H](N)C(=O)N[C@H]1[C@@H](O)[C@H](n2cnc3c(N)ncnc32)O[C@@H]1C(=O)O,,MIC,FP633,>100 µg/mL
Fc1ccc(CC(Cc2ccc(-c3ccccc3)cc2)n2ccnc2)c(F)c1,,MFC,,19 µM
COC(=O)[C@H]1O[C@@H](n2cnc3c(N)ncnc32)[C@H](O)[C@@H]1NC(=O)[C@@H](N)CSC,,MIC,FP633,>100 µg/mL
Cc1ccc2oc(/C(=N/O)c3ccc(Cl)cc3)c(C)c2c1,,MIC,NRRL Y-27077,5 µg/mL
Cc1ccc(-c2c3c(N)c4c(nc3nc3c2c(C)nn3-c2ccccc2)CCC4)cc1,broth dilution / absorbance,MIC50,CCC 130,62.5 µg/mL
CCCCCOc1ccc(-c2ccc(-c3ccc(C(=O)N[C@H]4CCCNC(=O)C5C[C@H](NS(C)(=O)=O)CN5C(=O)C(C(C)O)NC(=O)C(CCc5ccc(O)cc5)NC(=O)C5C[C@@H](O)CN5C(=O)C(C(C)O)NC4=O)cc3)cc2)cc1,,MIC,ATCC CCH442,0.2 µg/mL
c1ccc(CO/N=C(\c2ccccc2)c2cc3ccccc3o2)cc1,,MIC,,16 µg/mL
C[C@H]1[C@H](O)[C@@H](C)/C=C/C=C/C=C/C=C/C=C/C=C/C=C/[C@H](O[C@@H]2O[C@H](C)[C@@H](O)[C@H](N)[C@@H]2O)C[C@@H]2O[C@](O)(C[C@@H](O)C[C@@H](O)CC[C@H](O)[C@@H](O)C[C@@H](O)CC(=O)O[C@H]1C)C[C@H](O)[C@H]2C(=O)O,broth dilution,EC50,27,1 µM
CCNC(=O)CC1C(=O)OC(C)(C)CN1CC,broth dilution,MIC,SC5314,50 µg/mL
Cc1ccc2oc(C(=O)c3ccc(Cl)cc3)c(C)c2c1,,MIC,NRRL Y-27077,50 µg/mL
Clc1ccc(CN(Cc2ccc(-c3ccccc3)cc2)n2ccnc2)c(Cl)c1,,MIC,,6.2 µM
COc1cc(C(=O)O/N=C(\CCn2ccnc2)c2ccccc2)cc(OC)c1OC,agar diffusion,MIC80,,0.3053 µg/mL
Cc1c(/C(=N\O)c2ccc(Cl)cc2)oc2ccccc12,,MIC,NRRL Y-27077,5 µg/mL
COC(=O)C1=C[C@H](O)[C@H](O)[C@@H](O[C@@H](C(N)=O)[C@H]2O[C@@H](n3ccc(=O)[nH]c3=O)[C@H](O)[C@@H]2OC)O1,,MIC,YU-1200,>100 µg/mL
Oc1ccc(C(=S)n2nnnc2-c2ccc(Cl)cc2)c(O)c1,,MIC,10 isolates,25 µg/mL
C/C(=N\NC(=O)CSc1ncn[nH]1)c1ccccc1O,,MIC,ATCC 90028,800 µg/mL
Nc1ncnc2c1ncn2[C@@H]1O[C@H](C(=O)O)[C@@H](NC(=O)C(N)Cc2ccncc2)[C@H]1O,,MIC,FP633,12.5 µg/mL
Cc1ccc(-c2c3c(N)c4c(nc3nc3c2c(C)nn3-c2ccccc2)CCCC4)cc1,broth dilution / absorbance,MIC80,CCC 125,31.2 µg/mL
COc1ccc(C[C@H](N)C(=O)N[C@H]2[C@@H](O)[C@H](n3cnc4c(=O)[nH]cnc43)O[C@@H]2C(=O)O)cc1,,MIC,FP633,>100 µg/mL
Oc1ccc(C(=S)N2CCN=C2Cc2cccc3ccccc23)c(O)c1,,MIC,10 isolates,50 µg/mL
CC(C)c1ccc(NC(=O)CC2C(=O)OC(C)(C)CN2C2CC2)cc1,broth dilution,MIC,SC5314,>25 µg/mL
O/N=C(\c1ccccc1)c1oc2ccccc2c1Cn1ccnc1,,MIC,NRRL Y-27077,12.5 µg/mL
CCC(C)n1ncn(-c2ccc(N3CCN(c4ccc(OC[C@H]5CO[C@](Cn6cncn6)(c6ccc(Cl)cc6Cl)O5)cc4)CC3)cc2)c1=O,,MIC90,13 strains (fluconazole-resistant),>8 µg/mL
CO[C@H]1[C@@H](O)[C@H](n2ccc(=O)[nH]c2=O)O[C@@H]1[C@@H](O[C@H]1OC(C(=O)NCCSSCCNC(C)=O)=C[C@H](O)[C@@H]1O)C(N)=O,,MIC,YU-1200,>100 µg/mL
Cc1nn(-c2ccccc2)c2nc3nc4c(c(N)c3c(-c3ccc(Cl)cc3)c12)CCC4,broth dilution / absorbance,MIC100,ATCC 10231,>250 µg/mL
CCCCCCCCOc1ccc(-c2ccc(C(=O)NC3CC(NCCN)CNC(=O)[C@@H]4[C@@H](O)[C@@H](C)CN4C(=O)[C@@H](CO)NC(=O)[C@H]([C@H](O)Cc4ccccc4)NC(=O)[C@@H]4C[C@@H](O)CN4C(=O)[C@H]([C@@H](C)O)NC3=O)cc2)cc1,,MIC90,33 isolates fluconazole-resistant,0.5 µg/mL
Nc1ncnc2c1ncn2[C@@H]1O[C@H](C(=O)O)[C@@H](NC(=O)[C@@H](N)Cc2cccnc2)[C@H]1O,,MIC,FP633,25 µg/mL
CCCCCOc1ccc(-c2ccc(-c3ccc(C(=O)N[C@H]4CCCNC(=O)C5C[C@H](N)N5C(=O)C(C(C)O)NC(=O)C(CCc5ccc(O)cc5)NC(=O)C5C[C@@H](O)CN5C(=O)C(C(C)O)NC4=O)cc3)cc2)cc1,,MIC,ATCC 62376,0.2 µg/mL
C/C(=N\NC(=O)CSc1n[nH]c(C)n1)c1ccccc1[N+](=O)[O-],,MIC,ATCC 90028,200 µg/mL

For reference, 5 entries again:

Cc1ccc2oc(/C(=N/O)c3ccc(Cl)cc3)c(C)c2c1 ; measure: MIC ; strain: NRRL Y-27077 ; value: 5 µg/mL
CCc1nc(SCC(=O)N/N=C(\C)c2ccc(O)cc2)n[nH]1 ; measure: MIC ; strain: ATCC 90028 ; value: 400 µg/mL
O=C(O/N=C(\c1ccccc1)c1cc2ccccc2o1)c1ccccc1 ; measure: MIC ; value: 4 µg/mL
COc1cc(C(=O)O/N=C(\CCn2ccnc2)c2ccccc2)cc(OC)c1OC ; read by: agar diffusion ; measure: MIC80 ; value: 0.3053 µg/mL
Cc1ccc(-c2c3c(N)c4c(nc3nc3c2c(C)nn3-c2ccccc2)CCCC4)cc1 ; read by: broth dilution / absorbance ; measure: MIC80 ; strain: CCC 125 ; value: 31.2 µg/mL

A number after MIC or MFC names an inhibition level or a share of isolates. An empty or dashed field is not shown. ECn: concentration that inhibits the pathogen or its effect by n%. Two numbers with a dash give a range or band.